# Values from PubChem BioAssay AID624099 (ICCB-Longwood, 2012).
# Test: 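Knock-downs relieving repression by E2 of an HPV18 LCR luciferase reporter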 (primary screen)
# System: human C33A cervical carcinoma cells (HPV-negative) stably expressing BPV1 E2 and an HPV18 LCR luciferase reporter
# Knock-down reagent: siRNA pool against human genes, 40 nM
# Duration: 72 h
# Detection: 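HPV18 LCR reporter light per well, converted to plate-wise z-scores that exclude control wells, and averaged over triplicate plates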
# Scale: mean z-score and z-score: higher = stronger reporter signal, weaker E2 silencing
# Hit rule: 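Hit if mean z-score reaches 2 and two or more of three replicate z-scores also reach 2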
# The deposit covers about 21,000 reagents; below is an unselected part. 497 of all reagents (2.4%) were called active. 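Higher z means weaker E2 silencing; only reporter increases were scored, and knock-downs that hurt cell survival may mask genuine repressor factors.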 Unmarked entries are inactive.
gene,mean z-score,"z-score, replicate A","z-score, replicate B","z-score, replicate C"
TIMELESS (timeless circadian regulator),0.29,0.45,0.39,0.02
KARS1 (lysyl-tRNA synthetase 1),-0.88,-0.86,-1.08,-0.69
NDRG1 (N-myc downstream regulated 1),-0.71,-0.76,-0.62,-0.74
ZNF675 (zinc finger protein 675),0.51,0.56,0.73,0.25
"FAM199X (family with sequence similarity 199, X-linked)",-1.6,-1.68,-1.68,-1.44
CYP24A1 (cytochrome P450 family 24 subfamily A member 1),-0.21,-0.11,-0.26,-0.25
"BMI1 (BMI1 proto-oncogene, polycomb ring finger)",0.07,-0.03,0.18,0.07
HMGCL (3-hydroxy-3-methylglutaryl-CoA lyase),-0.33,-0.65,0.01,-0.37
METAP1 (methionyl aminopeptidase 1),1.14,0.82,1.11,1.49
LOC400944 (retired record),0.93,1.21,0.89,0.7
TCTN3 (tectonic family member 3),0.73,0.58,0.78,0.82

Quoted from the entries so far (3 entries):
gene,mean z-score,"z-score, replicate A","z-score, replicate B","z-score, replicate C"
TIMELESS (timeless circadian regulator),0.29,0.45,0.39,0.02
KARS1 (lysyl-tRNA synthetase 1),-0.88,-0.86,-1.08,-0.69
NDRG1 (N-myc downstream regulated 1),-0.71,-0.76,-0.62,-0.74

Continued:
gene,mean z-score,"z-score, replicate A","z-score, replicate B","z-score, replicate C"
TRIM22 (tripartite motif containing 22),1.11,0.94,1.05,1.33
DNAJC21 (DnaJ heat shock protein family (Hsp40) member C21),-0.03,0.22,-0.16,-0.14
FARSB (phenylalanyl-tRNA synthetase subunit beta),1,1.17,0.72,1.1
LOC389268 (retired record),-0.41,-0.67,-0.4,-0.16
TTC4 (tetratricopeptide repeat domain 4),-1.1,-0.54,-1.21,-1.55
CPM (carboxypeptidase M),2.24 (active),1.43,2.52,2.79
KRT39 (keratin 39),0.18,0.53,0,0.02
SUCLG2P2 (SUCLG2 pseudogene 2),0.5,0.46,0.56,0.5
TIMM29 (translocase of inner mitochondrial membrane 29),0.67,0.75,0.36,0.89
LOC389107 (retired record),-1.17,-1.46,-1.08,-0.96
MYO16 (myosin XVI),-0.09,-0.17,-0.2,0.1
STX7 (syntaxin 7),0.59,0.71,0.49,0.58
